In US20120207733A1 (priority 2011, published 2012):

Target: SNAP-25 (endogenous, human cell lines) (human) (UniProt P60880)
Experiment: cell-based or functional assay

Substance: BoNT/A (enzyme)
- Lowest Concentration and Earliest Time for Cleavage Detection, LNCaP cells: 50 nM
- Lowest Concentration and Earliest Time for Cleavage Detection, MCF-7 cells: 1.1 nM
